{"sequences": {"note": "Sequences of proteins named here, by UniProt entry; tags and fusion partners are left off. Residues count along the entry.", "UniProt Q05938, 1-176": "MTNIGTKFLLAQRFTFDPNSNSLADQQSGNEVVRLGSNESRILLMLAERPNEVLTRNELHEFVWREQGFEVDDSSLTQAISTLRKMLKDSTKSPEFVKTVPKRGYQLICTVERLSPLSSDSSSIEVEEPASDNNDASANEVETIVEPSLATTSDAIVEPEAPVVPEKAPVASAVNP"}, "source": "paper PMC6135047", "key": {"His-ToxR [1]": {"target": "His-ToxR (UniProt Q05938)", "assay": "EMSA", "conditions": "salmon sperm DNA; recombinant protein; residues 1-176; protein details: 6xHis (pET28a); label: 5'-32P; probe letters rebuilt from the primers and the genome"}, "His-ToxR [2]": {"target": "His-ToxR (UniProt Q05938)", "assay": "DNase I footprinting", "conditions": "recombinant protein; residues 1-176; protein details: 6xHis (pET28a); label: 5'-32P on one strand; probe letters rebuilt from the primers and the genome"}}, "data": [{"sequence": "CAGATTGCTGAATATCGGTGATGTATGAGAAATCGTTCAATGTAAAAAATATGCGCAATGATTGATGCTGGGAGAATAGAAAGGATGAGGTGGTATTTATAGTGAATATTGGTCGGGAGTTTTTAGAAAACTGAAAACGCCCTAAAAAAACACGTCTGATTTTGACAGCCTGATAAAAACGCACTTCATATAATTCGCTTGTATTGTACGAAAGGAGTGCAAGTGAATGAGTATTATCAATAGTCAGATAGCAACCAACACCAAGTTTGATGCATCGGTCCGGAATGGATTGGAATCGTCTCGTGCGGACAGTGCCGTAAAAGGCAGTTATCGAGGTGAGACCGTGCGCGTGCACAACGCCACTCAATCGCTT (double strand) [VP1667 (vopN) promoter EMSA probe]", "values": [{"measurement": "binding result", "setting": "His-ToxR [1]", "result": "binds"}]}, {"sequence": "CCGATCTTGTGAGCCTAGACTAATCAAAAATGGAGAATCAGATGAGAGTATTTTTTGATCAATTCTGTATTTTTTTGAGGTCAATTCACATCTACCTGCTGTTGTATGGTGTCAGCGTACCATTCGACAAAGAATACAATGCTATCACAATAAATTTCTTATTTCGAACTTTGATTTTTCACAATAAAGCGCATGGATATCTGGTGTTTTTTCAGGAGTTTTCAGATTAACTCGCTTGAGTGACAGCTGCGTAAGCTTGAATATCAAACTCTAGCTCAGGGGGATTGAGATTCGTAGCGTATAAGTGCTGTTCATGCCGTTGATTTCGTTTTACATGTGATTTATTAGTATCGAGGAAGAACCGGATGTGTTACTGATAAACTTGGGCAATG (double strand) [vtrA footprint probe]", "values": [{"measurement": "binding result", "setting": "His-ToxR [2]", "result": "binds"}]}, {"sequence": "CCGATCTTGTGAGCCTAGACTAATCAAAAATGGAGAATCAGATGAGAGTATTTTTTGATCAATTCTGTATTTTTTTGAGGTCAATTCACATCTACCTGCTGTTGTATGGTGTCAGCGTACCATTCGACAAAGAATACAATGCTATCACAATAAATTTCTTATTTCGAACTTTGATTTTTCACAATAAAGCGCATGGATATCTGGTGTTTTTTCAGGAGTTTTCAGATTAACTCGCTTGAGTGACAGCTGCGTAAGCTTGAATATCAAACTCTAGCTCAGGGGGATTGAGATTCGTAGCGTATAAGTGCTGTTCATGCCGTTGATTTCGTTTTACATGTGATTTATTAGTATCGAGGAAGAACCGGATGTGTTACTGATAAACTTGGGCAATGTTTTTTATTTAAGCTTAAAGCTGTCAAGATACTGCAAAAGAAGATCTAAGATTGTGTTTACATGATGAATAATAAATTTGAAATAAAGAATTTAGAGGTTTTTTAGTTAATGAAAGAATTTGGTGCATACCTTTCAAGTGGTTGTATTAATAATAACTCAATACAACAAAGCCAGAGCACATCAAAAGGAAATATACATATCAAAAGAGTTATGAGCTCTGAAAAAAATTAAATGATAAAAAACCACGTTTGCTTAGTGATGATCAGGCGTCTCTTATAATTACAAGAACACTGAGAAAGAATATTGCACAAAAAGCCTATGCTCGCATGTTTTCGGAGGGTGATTATTGGAAGCGTA (double strand) [vtrA promoter EMSA probe]", "values": [{"measurement": "binding result", "setting": "His-ToxR [1]", "result": "binds"}]}, {"sequence": "CGAGCGAATTACTATTTGGATCAAAGGTAAACCTTTGAGCAAGTAGAAATTTGGTGCCGATGTTAGTCATTTAGTTCTTCTTAGATGGATGATGTTGTAATTATGGTGATTTATATCACAAAATTACGTTTGCGCATGGGAGATACGCGACGTTTTAGATGCTTTTAGGGGGGTAGGATAATTAAATTTTTCTAAAAAAACACCGTTTTTAGCAATATTGACCTTGAATTTACATTTGTCAGCCACATGTTAAATGACATCTTAGTGTGGTGATTTCATGGGGCTAAATCACAAAGTCGTCCCTGAAAAAGCCTGTTAGTTTAGATGTTATGGAGCACACATGAGCGAAACCGTATCTCAAAATAAAGAAACTCGTGGTTTTCAATCAGAAGTAAAACAACTACTTCATTTAATGATCCATTCTCTTTATTCCAATAAAGAGATCTTTTTGCGCGAGCTGATTTCTAACGCATCAGATGCATCAGACAAATTGCGTTTTCAGGCACTTTCGAATCCAGATTTATATGAAGGTAACGCAGATCTTGGCGTTAAGCTGTCATTTGATGAAAGTGCAAATACCTTAACGAT (double strand) [toxR promoter EMSA probe]", "values": [{"measurement": "binding result", "setting": "His-ToxR [1]", "result": "binds"}]}, {"sequence": "GCATTATTGACGCCAGTATCGATGGACAGATTCAGGCGTTAAAGCAAGCGATGGTGAAACAACTCAGTGAGCGGAAAATGACGTCACCAGAGTAGGGCATCACCGCCAAATCAATCGAACACAAAGCTCAGCACATTGCTGAGCTTTGTTGTTTTCAAACGTCTTAAAACGAAAAAAATCCGACCATCTTTAGCATATTAATCGCGCCGAATGATGAAAAATAACAGCATCAAAACGGCTCTGGGTCACTCTGTTTTCATGACTCGTCTGCCGAATTCGTAACAAGCACTATAGGATTATTCATTCAAATGGCTAATGGATTTATTACCGCTTTGATGACGGATTTTGCTCACCGTTGCC (double strand) [VP1687 promoter EMSA probe]", "values": [{"measurement": "binding result", "setting": "His-ToxR [1]", "result": "binds"}]}]}
